Literature values, collected in patent US8431615B2, “Dose forms” (priority 2004, dated 2013).

Test system: A156V/T NS3 protease
Conditions: enzyme Ki or 2-day replicon IC50; cited from earlier work

In the case of `CCC[C@H](NC(=O)[C@@H]1[C@H]2CCC[C@H]2CN1C(=O)[C@@H](NC(=O)[C@@H](NC(=O)c1cnccn1)C1CCCCC1)C(C)(C)C)C(=O)C(=O)NC1CC1` [VX-950], the “resistance to VX-950 conferred by A156V/T mutations compared to the wild type protease” value is listed as “Increased resistance”.
